assay: Intrinsic fluorescence of quencher dyes compared with NIR Reporter Dye A; assay type: physicochemical; conditions: acidic (pH 4.6) vs basic (pH 7.5) 50 mM TRIS-HCl buffer with 10% DMSO

Row | SMILES | pH dependence of intrinsic fluorescence
1 | CC1(C)C(/C=C/C2=C(Cl)C(=C/C=C3/N(CCCCCCC(=O)O)c4ccc5cc(S(=O)(=O)[O-])ccc5c4C3(C)C)/CCC2)=[N+](CCCS(=O)(=O)[O-])c2ccc(N(CCCS(=O)(=O)O)CCCS(=O)(=O)O)cc21.[Na+] [Compound 5] | slight increase
2 | CC1(C)C(/C=C/C2=C(Cl)C(=C/C=C3/N(CCCCCC(=O)[O-])c4ccc5ccccc5c4C3(C)C)/CCC2)=[N+](CCCS(=O)(=O)[O-])c2ccc(N(CCCS(=O)(=O)O)CCCS(=O)(=O)O)cc21.[Na+] [Compound 9] | slight increase
3 | CC1(C)C(/C=C/C2=C(Cl)C(=C/C=C3/N(CCCCCC(=O)[O-])c4ccc5c(S(=O)(=O)[O-])cc(S(=O)(=O)[O-])cc5c4C3(C)C)/CCC2)=[N+](CCCS(=O)(=O)[O-])c2ccc(N(CCCS(=O)(=O)O)CCCS(=O)(=O)O)cc21.[Na+].[Na+].[Na+] [Compound 12] | slight increase
4 | CN(C)c1ccc2c3c(cccc13)C(/C=C/C=C/C=C1/N(CCCCCC(=O)[O-])c3ccc4c(S(=O)(=O)[O-])cc(S(=O)(=O)[O-])cc4c3C1(C)C)=[N+]2C.[Na+].[Na+] [Compound 19A] | do not have pH dependent intrinsic fluorescence

— patent publication US8227621B2, “Cyanine dyes and methods of use” (priority 2005, dated 2012)
